Source: the supplement of paper PMC9931576
Numbering of substitutions follows the chain as printed. Human monoclonal antibodies against the spike receptor-binding domain (heavy:light variable regions). IC50 against pseudoviruses bearing the spike of naturally observed variants; lower = stronger; >10 µg/ml means not reached at the top dose. No active / inactive call. The stated detection limit is 0.0005 µg/ml; values near or below 0.001 µg/ml lie at the floor of the assay.

B1: BD56-1850 (protein)
chain 1: QVQLVQSGSEVKKPGSSVKVSCKASGDTFSKYAITWVRQAPGQGLEWMGRIIPMFAMANYAQKFQGRVTIIADKSTSTAYMELSSLRSEDTAMYFCATSAYQYGGGGHYLDFWGQGTLVTVSS
chain 2: EIVLTQSPGTLSLSPGERATLSCRASQSISGTYLHWYQQKPGQAPRLLIYGATSRATGIPDRFSGSGSGTDFTLTISRLEPEDFAVYYCQQCHSSPRTFGQGTKVEIK
B2: BD56-1851 (protein)
chain 1: QVQLVESGGGVVQPGRSLRLSCAASGFTLSSFAITWVRQAPGKGLEWVAVISYDGTNKYYADSVKDRFTVSRDNSKNTLHLQMNSLRAEDTAVYYCARDMYPLNAYYYGMDVWGQGTTVTVSS
chain 2: DIQLTQSPSSLSASVGDRVTITCRASQGISTYLAWYQQKPGKAPKLLIYSASTLQSGVPSRFSGSGSGTDFTLTISSLQPEDFASYYCQQLNSDPRTFGQGTKLEIK
B3: BD56-1852 (protein)
chain 1: QVQLVQSGAEVKKPGSSVKVSCKTSGDTFSRFAITWVRQAPGQGLEWMGRIIPMFGMANYAQKFQGRVTFTAETSTNTAYLELSSLRSEDTAIYYCATSAYYYESSGYYIDKWGQGTLVTVSS
chain 2: B1 chain 2 with S28T, I29V, S30D, G31N, T32N, H35A, T53S, Q90H, C92Y, S94N
B4: BD56-1855 (protein)
chain 1: QLQLQESGPGLVKPSETLSLTCTVSGGSIRSSSYYWGWIRQPPGKGLEWIGSMYYGGSTHYKPSLKSRVTISVDTSKNQFSLKVTSVTAADTAVYYCATQGWLRGAFDYWGQGTRVTVSS
chain 2: NFMLTQPHSVSESPEKTVTISCTGSGGNIASNYVQWYQQRPGSAPTTVIYEDTQRPSGVPDRFSGSIDSSSNSASLSISGLKTEDEADYYCQSYDVNNHVLFGGGTKLTVL
B5: BD56-1863 (protein)
chain 1: EVQLVESGGGLVHPGGSLRLSCAASGLIVSSNYMTWVRQAPGKGLEWVSLLYAGGSTFYADSVKGRFTISRDNSKNTLFLQMNSLRVEDTAVYYCARGPYPKFDPWGQGTLVTVSS
chain 2: DIQMTQSPSSLSASVGDRVTITCQASQDIRNYINWYQQKPGKAPKLLIYDASNLETGVPSRFSGRGSGTDFTFTISGLQPEDVATYYCQQYDNLPITFGQGTRLEIK
B6: BD56-1864 (protein)
chain 1: EVQLVESGGGSVQPGGSLTLSCAASGFTFRHYDMHWVRQRPGKGLEWVSTIGTAGDTYYPDSVKGRFTISRENAKNSLYLQMNSLRDGDTAVYYCARAQYSSNLYPRLDAWGQGTLVTVSS
chain 2: DIQMTQSPSSLSASVGDRVTITCRASQKISNFLNWYQQKPGKAPKLLIYTASTLQSGVPSRFSGSGSGTDFTLTISSLQPEDFATYSCQQTYSSEWTFGQGTKVEIK
B7: BD56-1867 (protein)
chain 1: QVQLVESGGGVVQPGRSLRLSCATSGFSFSTYSLHWVRQAPGKGLEWVTFISYSGRNKYYADSVKGRFTISRDNSKNTLYLHMNSLRPDDTAMYYCARPPWGIDSGSYSEAEMYFDYWGQGTLVTVSS
chain 2: QSVLTQPPSVSGAPGQRVTISCTGSSSNIGAGYDVHWYQHLPGTAPKLLIYGNDHRPSGVPDRFSGSRSGTSASLAITGLQAEDEADYYCQSYDSSLSVPSWVFGGGTKLTVL
B8: COVOX-75 (protein)
chain 1: QVQLVESGGGVVQPGRSLRLSCAASGFTFNNYPLHWVRQAPGKGPEWVAVISQDGGNKYYVDSVKGRFTISRDNSKNTLYLQMNNLRAEDTALYYCARDVVVVVAARNHYYNGMDVWGQGTTVTVSS
chain 2: DIQLTQSPSSVSASVGDRVTITCRASQGISSWLAWYQQKPGKAPKLLIYAVSSLQSGVPSRFSGSGSGTDFTLTISSLQPEDFATYYCQQAKSFPFTFGPGTKVEIK
B9: BD56-1872 (protein)
chain 1: QVQLVQSGPEVKKPGTSVKVSCKASGFTFSLSSVQWVRQARGQRLEWIGWIAVGNGNTKNAQKFQARVTFTSDMSTSTAYMELSSLRSDDTAVYYCAAPQCNRTRCYDGFNIWGQGTMVTVSS
chain 2: EIVLTQSPGTLSLSPGERATLSCRASQSVSSDYFAWYQQKPGQAPRLLIYAASTRATGIPDRFSGRGSGTDFTLTISRLEPEDFAVYHCQQYGNSPTWTFGQGTKVEIK
B10: BD56-1876 (protein)
chain 1: EVQLVESGGGLVQAGGSLRLSCGASGFIVRNNYMNWVRQAPGKGLEWVSSIYSGGTIHSADSVKGRFTISRDDSKNTVYLQMNNLRAADTAHYYCARGGEHYDSAGYPMYQTGAFDVWGQGTMVTVSS
chain 2: QSALTQPPSASGSPGQSVTISCTGTSSDVGGHNYVSWYQQHPGKAPKLIIFEVSKRPSGVPDRFSGSKSGNTASLTVSGLQSEDEADYHCSSYAGSNNFVFGTGTKVTVL
B11: COVOX-45 (protein)
chain 1: QVQLVESGGGVVQPGRSLRLSCAASGFTFSTYAMHWVRQAPGKGLEWVAVLSYDGSNKYYADSVKGRFTISRDNSKNTLYLQMNSLRAEDTAVYYCAKGGSYAYYYYMDVWGKGTTVTVSS
chain 2: not shown
B12: BD56-1883 (protein)
chain 1: QVQLVQSGAEVKKPGSSVKVSCKASEDTFNSYTINWVRQAPGQALEWMGRVIPLLAMTNYAQKFQGRLTITADKSTSTAYMELSSLRSEDTAMYFCARARAPFYASGYNGALNYFDPWGQGTLVTVSS
chain 2: B1 chain 2 with I29V, S30T, G31S, T32I, H35A, T53S, G69V, C92Y, R97F, V105L
B13: BD56-1891 (protein)
chain 1: QVQLVQSGAEVKRPGASVKVSCKASGYAFTGYYIHWVRQAPGQGLEWMGWVDPNSGGINYAQKFRDRVTMTTDTSITTAYMDLSRLTSDDTAVYYCARDTGSYYSDAEYFQHWGQGTLVTVSS
chain 2: DIQMTQSPSPLSASVGDRVTITCRASQPIDNDLNWYQQKPGKAPKLLLYSASNLESGVPSRFSGSGSGADFTLTITSLQPEDFATYYCQQSYTTPPYTFGPGTKLEIK

Experiments:
Experiment in all cases: pseudovirus neutralization IC50; higher = weaker neutralization
[1] = target: SARS-CoV-2 Omicron BA.1 spike pseudovirus
Description: (§1)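 Single-round VSV luciferase pseudovirus mixed with antibody dilutions for 1 h and put on Huh-7 cells for about a day; IC50 from the dose curve.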

[2] = target: SARS-CoV-2 Omicron BA.2 spike pseudovirus
Description: as §1

[3] = target: SARS-CoV-2 Omicron BA.2.75 spike pseudovirus
Description: as §1

[4] = target: SARS-CoV-2 Omicron BA.5 spike pseudovirus
Description: as §1

[5] = target: SARS-CoV-2 Omicron BQ.1.1 spike pseudovirus
Description: as §1

[6] = target: SARS-CoV-2 Omicron XBB spike pseudovirus
Description: as §1

[7] = target: SARS-CoV-2 early D614G spike pseudovirus
Description: as §1

Binder	pseudovirus neutralization IC50 [1]	pseudovirus neutralization IC50 [2]	pseudovirus neutralization IC50 [3]	pseudovirus neutralization IC50 [4]	pseudovirus neutralization IC50 [5]	pseudovirus neutralization IC50 [6]	pseudovirus neutralization IC50 [7]
B1	0.019 µg/mL	0.0214 µg/mL	0.00846 µg/mL	> 10 µg/mL	> 10 µg/mL	> 10 µg/mL	0.00241 µg/mL
B2	0.00119 µg/mL	0.0017 µg/mL	0.00266 µg/mL	0.00178 µg/mL	0.0197 µg/mL	0.0194 µg/mL	0.00813 µg/mL
B3	0.00524 µg/mL	0.00988 µg/mL	0.00748 µg/mL	> 10 µg/mL	> 10 µg/mL	> 10 µg/mL	0.00221 µg/mL
B4	1.19 µg/mL	> 10 µg/mL	> 10 µg/mL	> 10 µg/mL	> 10 µg/mL	> 10 µg/mL	0.699 µg/mL
B5	0.00495 µg/mL	0.008 µg/mL	> 10 µg/mL	0.0189 µg/mL	> 10 µg/mL	> 10 µg/mL	0.0228 µg/mL
B6	> 10 µg/mL	> 10 µg/mL	> 10 µg/mL	> 10 µg/mL	> 10 µg/mL	> 10 µg/mL	0.0278 µg/mL
B7	0.055 µg/mL	6.48 µg/mL	2.47 µg/mL	0.188 µg/mL	0.238 µg/mL	0.179 µg/mL	0.0907 µg/mL
B8	> 10 µg/mL	> 10 µg/mL	> 10 µg/mL	> 10 µg/mL	> 10 µg/mL	> 10 µg/mL	0.027 µg/mL
B9	0.0013 µg/mL	0.000977 µg/mL	0.00277 µg/mL	0.45 µg/mL	> 10 µg/mL	> 10 µg/mL	0.00141 µg/mL
B10	0.00072 µg/mL	0.000535 µg/mL	0.00864 µg/mL	4.19 µg/mL	> 10 µg/mL	> 10 µg/mL	0.000682 µg/mL
B11	> 10 µg/mL	> 10 µg/mL	> 10 µg/mL	> 10 µg/mL	> 10 µg/mL	> 10 µg/mL	> 10 µg/mL
B12	0.0682 µg/mL	0.0835 µg/mL	0.00928 µg/mL	> 10 µg/mL	> 10 µg/mL	> 10 µg/mL	0.00262 µg/mL
B13	0.936 µg/mL	0.0275 µg/mL	1.33 µg/mL	0.0451 µg/mL	> 10 µg/mL	> 10 µg/mL	0.0147 µg/mL
